Measurements as given in US20030198617A1, “Pharmaceutical tryptophan containing dipeptide compositions and methods of use thereof” (priority 1993, published 2003).

System: Mycobacterium tuberculosis
Conditions: 50-100 μg on alternate days

Substance: Glu-Trp [IM862]
- tolerance, allergic reactions and other complications: well-tolerated
